{"source": "patent US7141557B2", "about": "“Lipid analogs for treating viral infections” (Wake Forest University, priority 1994, dated 2006)", "system": "HIV-1", "assay": "Anti-HIV-1 syncytial plaque assay using CEM-SS cell monolayers", "type": "cell-based, human immunodeficiency virus type 1 (HIV-1)", "conditions": "IC50 for cytotoxicity divided by IC50 for anti-HIV-1 activity, CEM-SS cells", "from_the_text": "In brief, CEM-SS cell monolayers were infected with HIV-1. Infected cells were overlaid with RPMI-1640 medium plus 10 percent fetal bovine serum (FBS) supplemented with different concentrations of inhibitor. Plaques were counted at five days after infection. In this assay HIV-1 syncytial plaques are seen as large, multicellular foci (10 to 25 nuclei/syncytium) that appear either brown and granular or clear. Since the number of HIV-1 syncytial plaques correlates with reverse transcriptase (RT) and p24 core antigen activity in the HIV-1 infected cell overlay fluids, the syncytial plaque assay can be used to quantify the amount of infectious virus. Reverse transcriptase activity was assayed according to a described procedure (B. J. Poeisz et al., Proc. Natl. Acad. Scie. (U.S.A.) 77, 7415 (1980)). The activity of p24 core antigen induced by HIV-1 infection of CEM-SS cells was measured spectrophotometrically using the commercial Coulter EIA.", "data": [{"smiles": "CCCCCCCCCCCC(=O)NCC(COP(=O)([O-])OCC[N+](C)(C)C)OCCCCCCCCCC", "note": "(stereo not shown) [CP-128, 1-dodecanamido-2-decyloxypropyl-3-phosphocholine]", "values": [{"measurement": "Differential Selectivity", "result": 225.7}]}, {"smiles": "CCCCCCCCCCCCOCC(COP(=O)([O-])OCC[N+](C)(C)C)OCCCCCCCCCC", "note": "(stereo not shown) [CP-129, 1-dodecyloxy-2-decyloxypropyl-3-phosphocholine]", "values": [{"measurement": "Differential Selectivity", "result": 176.0}]}, {"smiles": "CCCCCCCCCCCC(=O)NCC(COP(=O)([O-])OCC[N+](C)(C)C)OCCCCCCCC", "note": "(stereo not shown) [CP-130, 1-dodecanamido-2-octyloxypropyl-3-phosphocholine]", "values": [{"measurement": "Differential Selectivity", "result": 611.7}]}, {"smiles": "CCCCCCCCCCCCOC(CNC(=O)CCCCCCCCCCC)COP(=O)([O-])OCC[N+](C)(C)C", "note": "(stereo not shown) [CP-131, 1-dodecanamido-2-dodecyloxypropyl-3-phosphocholine]", "values": [{"measurement": "Differential Selectivity", "result": 114.2}]}]}
